A mixed list of measured activities; the numbers were collected in NIAID ChemDB.

All rows: growth or infection tests; species: Mouse cytomegalovirus; read-out: EC50

ECn: concentration that inhibits the pathogen or its effect by n%. An empty or dashed field is not shown. Conditions beyond the fields shown may differ between rows.

CCCCCCCCCCCCCCCCCCCCOCCCOP(=O)(O)CO[C@H](CO)Cn1ccc(N)nc1=O ; cell line: MEF ; strain: SMITH ; method: plaque count ; result: 0.067 µM
CN(C)c1cccc2c(S(=O)(=O)Nc3ccc(NC(=O)C(C)(C)CO)cc3)cccc12 ; strain: WILD TYPE ; method: plaque count ; result: 0.049 µM
Nc1nc2c(ncn2COC(CO)CO)c(=O)[nH]1 ; cell line: 3T3-L1 ; strain: SMITH ; method: plaque count ; result: 1 µg/mL
O=C(NCc1ccc(Cl)cc1)c1cn2c3c(cc(CN4CCOCC4)cc3c1=O)OC(c1cccnc1)C2 ; cell line: HFF ; method: plaque count ; result: 0.8 µM
CCCCCCCC/C=C\CCCCCCCOCCCOP(=O)(O)CO[C@H](CO)Cn1ccc(N)nc1=O ; cell line: MEF ; strain: SMITH ; method: plaque count ; result: 0.004 µM
CCCCCCCCCCCCCCCCCCOCCCOP1(=O)CO[C@@H](Cn2ccc(N)nc2=O)CO1 ; cell line: MEF ; method: plaque count ; result: 0.05 µM
Nc1ncnc2c1ncn2/C=C1/CC1(CO)CO ; cell line: MEF ; method: plaque count ; result: 0.27 µM
COC(=O)[C@H](C)NP(=O)(OCC1C/C1=C/n1cnc2c(NC3CC3)nc(N)nc21)Oc1ccccc1 ; cell line: MEF ; method: plaque count ; result: 0.93 µM
CCOP(=O)([O-])CCCOCn1cnc2c(=O)[nH]c(N)nc21 ; cell line: 3T3 ; strain: SMITH ; method: cytopathic effect ; result: 10 µg/mL
CCCCCCCCCCCCCCCCOCCCOP(=O)(O)CO[C@H](CO)Cn1ccc(N)nc1=O ; cell line: MRC-5 ; method: plaque count ; result: 0.0009 µM
CCCCCCCCCCCCOCCCOP1(=O)CO[C@@H](Cn2ccc(N)nc2=O)CO1 ; cell line: MEF ; strain: SMITH ; method: plaque count ; result: 0.013 µM
CC(C)Nc1nc2cc(Cl)c(Cl)cc2n1[C@H]1O[C@@H](CO)[C@H](O)[C@@H]1O ; cell line: HFF ; strain: SMITH (WILD TYPE) ; method: plaque count ; result: 28.5 µM
CCCCCCCCCCCCCCCCCCOCCCOP1(=O)CO[C@@H](Cn2ccc(N)nc2=O)CO1 ; cell line: MEF ; strain: SMITH ; method: plaque count ; result: 0.05 µM
Nc1nc2c(ncn2COC2COP(=O)(O)OC2)c(=O)[nH]1 ; cell line: MRC-5 ; strain: SMITH ; method: plaque count ; result: 1.6 µM
O=C(NCc1ccc(Cl)cc1)c1c[nH]c2ccc(C#CCO)cc2c1=O ; strain: SMITH ; method: plaque count ; result: 1.3 µM
CCCCCCCCCCCCCCCCCOC[C@H](COP1(=O)CO[C@@H](Cn2ccc(N)nc2=O)CO1)OCc1ccccc1 ; cell line: MEF ; strain: SMITH ; method: plaque count ; result: 0.025 µM
OC[C@H]1O[C@@H](n2c(Br)nc3cc(Cl)c(Cl)cc32)[C@H](O)[C@@H]1O ; cell line: HFF ; strain: Smith (resistant) ; method: plaque count ; result: 34 µM
Nc1nc2c(ncn2COC(CO)CCP(=O)([O-])O)c(=O)[nH]1 ; cell line: 3T3 ; strain: SMITH ; method: cytopathic effect ; result: 10 µg/mL
CCCCCCCCCCCCCCCCCCOCCCOP1(=O)CO[C@@H](Cn2ccc(N)nc2=O)CO1 ; cell line: MRC-5 ; method: plaque count ; result: 0.004 µM
CNc1cccc2c(S(=O)(=O)Nc3ccc(NC(=O)C(C)(C)CF)cc3)cccc12 ; strain: BAY 38-4766-resistant ; method: plaque count ; result: 14.7 µM
CCCCCCCCCCCCCCCCCCOCCOP1(=O)CO[C@@H](Cn2ccc(N)nc2=O)CO1 ; cell line: MEF ; strain: SMITH ; method: plaque count ; result: 0.003 µM
Nc1nc2c(ncn2COC(CO)CCP(=O)(O)O)c(=O)[nH]1 ; cell line: MRC-5 ; strain: SMITH ; method: plaque count ; result: 1.3 µM
O=C(NCc1ccc(Cl)cc1)c1c[nH]c2ccc(CCCO)cc2c1=O ; strain: SMITH ; method: plaque count ; result: 1.6 µM
CCCCCCCCCCCCCCCCOP(=O)(O)CO[C@H](CO)Cn1ccc(N)nc1=O ; cell line: MEF ; method: plaque count ; result: 0.02 µM
Nc1ccn(C[C@@H](CO)OCP(=O)(O)O)c(=O)n1 ; cell line: 3T3-L1 ; strain: SMITH ; method: plaque count ; result: 0.03 µg/mL
Nc1nc(Cl)c2ncn(/C=C3/C[C@H]3CO)c2n1 ; cell line: MEF ; method: plaque count ; result: 0.27 µM
CNc1cccc2c(S(=O)(=O)Nc3ccc(NC(=O)C(C)(C)CO)cc3)cccc12 ; strain: BAY 38-4766-resistant ; method: plaque count ; result: 31 µM
CCCCCCCCCCCCCCCCCCOCCOP(=O)(O)CO[C@H](CO)Cn1ccc(N)nc1=O ; cell line: MRC-5 ; method: plaque count ; result: 0.001 µM
CCCCCCCCCCCCCCCCCCOCCOP(=O)(O)CO[C@H](CO)Cn1ccc(N)nc1=O ; cell line: MEF ; strain: SMITH ; method: plaque count ; result: 0.001 µM
COc1cc(OC)c(NC(=S)Nc2ccc(NC(C)=O)cc2)cc1Cl ; cell line: MEF ; strain: SMITH ; result: >20 µM
O=C(NO)c1ccc(O)c(O)c1 ; strain: Drug-resistant ; method: plaque count ; result: 28.88 µM
Nc1ncnc2c1ncn2/C=C1/C[C@@H]1CO ; cell line: MEF ; method: plaque count ; result: 0.55 µM
Nc1ccn(C[C@@H](CO)OCP(=O)(O)O)c(=O)n1 ; cell line: 10T1/2 ; strain: SMITH ; method: plaque count ; result: 0.04 µM
Nc1nc(NC2CC2)c2ncn(C=C3CC3CO)c2n1 ; cell line: MEF ; method: plaque count ; result: 0.37 µM
Nc1nc2c(ncn2COC(CO)CO)c(=O)[nH]1 ; cell line: MRC-5 ; method: plaque count ; result: 1.4 µM
Cn1cc(C(=O)NCc2ccc(Cl)cc2)c(=O)c2cc(CN3CCOCC3)ccc21 ; cell line: 10T1/2 ; strain: SMITH ; method: plaque count ; result: 0.7 µM
COc1nc(N)nc2c1ncn2C=C1CC1CO ; cell line: MEF ; method: plaque count ; result: 0.4 µM
CCCCCCCC/C=C\CCCCCCCOCCCOP(=O)(O)CO[C@H](CO)Cn1ccc(N)nc1=O ; cell line: MEF ; method: plaque count ; result: 0.004 µM
CCCCCCCC/C=C\CCCCCCCOCCOP1(=O)CO[C@@H](Cn2ccc(N)nc2=O)CO1 ; cell line: MEF ; strain: SMITH ; method: plaque count ; result: 0.001 µM
COC(=O)[C@H](C)NP(=O)(OC[C@H]1C/C1=C/n1cnc2c(=O)[nH]c(N)nc21)Oc1ccccc1 ; cell line: MEF ; method: plaque count ; result: 3.3 µM

5 of the rows above, restated:

| SMILES | cell line | strain | method | result |
|---|---|---|---|---|
| OC[C@H]1O[C@@H](n2c(Br)nc3cc(Cl)c(Cl)cc32)[C@H](O)[C@@H]1O | HFF | Smith (resistant) | plaque count | 34 µM |
| O=C(NCc1ccc(Cl)cc1)c1c[nH]c2ccc(CCCO)cc2c1=O |  | SMITH | plaque count | 1.6 µM |
| Nc1nc(NC2CC2)c2ncn(C=C3CC3CO)c2n1 | MEF |  | plaque count | 0.37 µM |
| O=C(NO)c1ccc(O)c(O)c1 |  | Drug-resistant | plaque count | 28.88 µM |
| CCCCCCCCCCCCCCCCCCOCCCOP1(=O)CO[C@@H](Cn2ccc(N)nc2=O)CO1 | MEF |  | plaque count | 0.05 µM |